Measured values from several laboratories, pooled; numbers as filed in NIAID ChemDB.

Common to all: growth or infection tests; agent: Hepatitis C virus; endpoint: EC50

Rows are shuffled and stem from different studies. ECn is the concentration giving n% inhibition of infection, replication or growth. a–b is a range or a potency band. Blank or dashed fields: not listed here.

structure	strain	read by	setting	value
CC(C)(C)C(=O)OCn1cc(F)c(Cn2c(C(=O)O)c(-c3ccc[nH]c3=O)c3c4occc4c(F)cc32)cc1=O		replicon		<0.5 µM
O=c1c(-c2nc(Cc3ccc(F)cc3)no2)cn(Cc2ccc(C(F)(F)F)cc2)c2cc(N3CCOCC3)c(F)cc12	1b	replicon		>10 µM
CCCCCOc1ccc(N(C(=O)C(=O)OC)c2nc(-c3ccc(F)c(F)c3)cs2)cc1C(F)(F)F				<1 µM
CSc1ccc2cc(Cn3c(C(=O)O)c(-c4ccc[nH]c4=O)c4c5occc5c(F)cc43)c(Cl)nc2c1		replicon		<0.5 µM
COCCN(C(=O)C1CCC(C)CC1)c1cc(-c2ccc(-c3cc4nccc(N)n4n3)cc2)sc1C(=O)O	1b	replicon / ELISA		0.001–0.0049 µM
O=c1c(-c2noc(Cc3ccccc3)n2)cn(Cc2ccc(C(F)(F)F)cc2F)c2cc(N3CCCNCC3)c(F)cc12	1b	replicon		<2 µM
NS(=O)(=O)c1ccc(CNc2nc(NCC(F)(F)F)c3nc(-c4ccc(F)c(S(=O)(=O)N5CCNCC5)c4)ccc3n2)cc1		replicon		<0.1 µM
CCCCCOc1ccc(N(C)c2nc(-c3ccc(CN4CCN(C)CC4)nc3)cs2)cc1C(F)(F)F				<1 µM
CCOCCN(C(=O)C1CCC(C)CC1)c1cc(-c2ccc(-c3cn4ccccc4n3)cc2)sc1C(=O)O	1b	replicon / ELISA		0.01–0.049 µM
NC(=O)CCCC(c1ccccc1)c1nc(-c2cn(Cc3ccc(C(F)(F)F)cc3F)c3ccccc3c2=O)no1	1b	replicon		<0.5 µM
COCCN(C(=O)C1CCC(C)CC1)c1cc(-c2ccc(-c3cc4ccccc4o3)cc2)sc1C(=O)O	1a	replicon / ELISA		0.001–0.0049 µM
CS(=O)(=O)NC(=O)c1c(-c2ccc[nH]c2=O)c2c3ncsc3ccc2n1Cc1ccccc1F		replicon		<0.5 µM
COc1c(-c2cccc3ccccc23)cnn([C@@H]2C[C@H]3C(=O)N[C@]4(C(=O)NS(=O)(=O)C5CC5)CC4/C=C\CCCCCC[C@H](NC(=O)OC4CCCC4)C(=O)N3C2)c1=O	1b	replicon		0.0004 µM
O=C(N[C@H]1CCCCC/C=C\[C@@H]2C[C@@]2(C(=O)NS(=O)(=O)C2CC2)NC(=O)C2C[C@@H](OC(=O)N3Cc4cccc(F)c4C3)CN2C1=O)c1ccc2c(c1)B(O)OC2		luciferase / replicon	genotype 1b	3.2 nM
CC1CCC(C(=O)N(c2cc(-c3ccc(-c4cc5ncccn5n4)cc3)sc2C(=O)O)C2CCOCC2)CC1	1a	replicon / ELISA		0.001–0.0049 µM
CCOc1nc(NCc2ccc(S(N)(=O)=O)cc2)nc2ccc(-c3ccc(NC(=O)C4(O)CC4)cc3)nc12		replicon		<0.1 µM
CC1(C)CCCCc2cccc3c2CN(C3)C(=O)O[C@@H]2C[C@@H](C(=O)NC3CCOB3O)N(C2)C(=O)[C@H](C(C)(C)C)NC(=O)OC1		replicon	genotype 1a	0.78 µM
CCCCCCCCOc1ccc(N(C(=O)CCC(=O)O)c2nc(-c3cccnc3)cs2)cc1C(F)(F)F				<1 µM
O=C(NS(=O)(=O)C1CC1)c1c(-c2ccc[nH]c2=O)c2c3occc3ccc2n1Cc1cc2ccccc2nc1Cl		replicon		<0.5 µM
Fc1ccc(CNc2nc(NCCN3CCOCC3)c3nc(-c4ccc(F)cc4)ccc3n2)cc1		replicon		<0.1 µM
CCCCCOc1ccc(N(CC(=O)N(CC)CC)c2nc(-c3cccnc3)cs2)cc1C(F)(F)F				>10 µM
CCOc1nc(N)nc2c1ncn2[C@@H]1O[C@@H]2COP(=O)(OC(C)C)O[C@H]2[C@@]1(C)F	2a	replicon	105 d	2.32 µM
Cc1cc2ccc3c(c(-c4ccc[nH]c4=O)c(C(=O)O)n3Cc3cc(F)ccc3F)c2o1		replicon		>1.5 µM
O=C1Cn2c(c(C3CCCCC3)c3ccc(C(=O)O)cc32)-c2ncccc2N1	1b			1.8 µM
CS(=O)(=O)NC(=O)c1c(-c2ccc[nH]c2=O)c2c3c(ccc2n1Cc1cc(F)ccc1F)CCC3		replicon		0.5–1.5 µM
CCOc1nc(NCc2nccs2)nc2ccc(-c3ccc(F)cc3)nc12		replicon		<0.1 µM
COc1cc2c(=O)c(C(=O)c3ccc(C)cc3)cn(Cc3ccc(C(C)(C)C)cc3)c2cc1OC		replicon		11.7 µM
CC1CCC(C(=O)N(c2cc(-c3ccc(-c4cn5ccsc5n4)cc3)sc2C(=O)O)C2CCOCC2)CC1	1b	replicon / ELISA		0.01–0.049 µM
C[C@H](O)C(=O)Nc1ccc(-c2ccc3nc(NCc4ccc(S(N)(=O)=O)cc4)nc(NCC(F)(F)F)c3n2)cc1F		replicon		<0.1 µM
CCCCCOc1ccc(N(C)c2nc(C(=O)Nc3ccc(C#N)cc3)cs2)cc1C(F)(F)F				>10 µM
CC1(C)CCCCc2cccc3c2CN(C3)C(=O)O[C@@H]2C[C@@H](C(=O)NC3B(O)OC[C@@H]3C3CC3)N(C2)C(=O)[C@H](C(C)(C)C)NC(=O)OC1		replicon	genotype 1a	0.98 µM
CCCCCCCCOc1ccc(N(C(=O)COC(C)=O)c2nc(-c3ccc(F)c(F)c3)cs2)cc1				<1 µM
COc1ccc(Cn2cc(-c3noc(C(C)(C)c4ccc(F)cc4)n3)c(=O)c3cc(F)c(N4CCOCC4)cc32)cc1	1b	replicon		<0.5 µM
CCCCCOc1ccc(N(C(=O)C(=O)OC)c2nc(-c3ccc(F)cc3)cs2)cc1F				<1 µM
CC(C)(c1ccccc1)c1nc(-c2cn(Cc3ccc(C(F)(F)F)cc3)c3cc(N4CCS(=O)(=O)CC4)c(F)cc3c2=O)no1	1b	replicon		<0.5 µM
O=C(O)c1ccc2c(C3CCCCC3)c3n(c2c1)CCOc1cccnc1-3	1b			>10 µM
CC1CCC(C(=O)N(c2cc(-c3ccc(-c4cc5ncccc5o4)cc3)sc2C(=O)O)C2CCOCC2)CC1	1a	replicon / ELISA		<0.001 µM

For reference, 4 entries again:

{"structure": "Fc1ccc(CNc2nc(NCCN3CCOCC3)c3nc(-c4ccc(F)cc4)ccc3n2)cc1", "read by": "replicon", "value": "<0.1 µM"}
{"structure": "CC(C)(C)C(=O)OCn1cc(F)c(Cn2c(C(=O)O)c(-c3ccc[nH]c3=O)c3c4occc4c(F)cc32)cc1=O", "read by": "replicon", "value": "<0.5 µM"}
{"structure": "NS(=O)(=O)c1ccc(CNc2nc(NCC(F)(F)F)c3nc(-c4ccc(F)c(S(=O)(=O)N5CCNCC5)c4)ccc3n2)cc1", "read by": "replicon", "value": "<0.1 µM"}
{"structure": "CCCCCOc1ccc(N(C)c2nc(-c3ccc(CN4CCN(C)CC4)nc3)cs2)cc1C(F)(F)F", "value": "<1 µM"}